Pooled drug test results. Numbers come from NIAID ChemDB, via PubChem.

All rows: growth or infection tests; agent: Mycobacterium tuberculosis

Two numbers with a dash give a range or band. Percent inhibition refers to the dose given; in toxicity tests it is the harm to the cells. MIC bound comes from a single tested concentration. An empty or dashed field is not shown. ECn is the concentration giving n% inhibition of infection, replication or growth. A number after MIC or MFC names an inhibition level or a share of isolates. Neighbouring rows are from separate reports.

compound	setting	read-out	read by	strain or isolate	tested at	result
NC(=O)CS		MIC		H37Rv		>100 µg/mL
Cc1ccn2c(C(=O)NCc3ccc(N(C)C)cc3)c(C)nc2c1		MIC90	resazurin	H37Rv		<2 µM
Nc1nc(-c2ccc(Cl)cc2)cc(-c2cn(-c3ccccc3)nc2-c2ccc(F)cc2)n1		EC90	BACTEC / radiometric	H37Rv		>226.3 µM
C=CCNC(=S)N=Nc1c(O)[nH]c2ccccc12		inhibition		H37Rv	12 µg/mL	24%
CNS(=O)(=O)c1cc([N+](=O)[O-])c(N2CCCCC2)c([N+](=O)[O-])c1		inhibition	BACTEC	H37Rv	12.5 µg/mL	9%
S=C(Nc1ccc(C2CCCCC2)cc1)c1cccc(Cl)c1		MIC		My 331/88		32 µM
Cc1ccc2nc(C)c(C(=O)NCc3ccc(C(F)(F)F)cc3)n2c1		MIC90	resazurin	H37Rv		<2 µM
Cc1ccccc1Nc1nnc(-c2ccc(NC(=S)Nc3ccccc3)cc2)s1		MIC		H37Rv		>6.25 µg/mL
COc1ccc(C(CC(=O)c2ccc3c(c2)OCO3)c2c(O)c3ccccc3oc2=O)cc1OC		MIC bound	BACTEC	H37Rv		>12.5 µg/mL
COC(=O)c1cnccn1	21 d	MIC		331/88		>500 µM
O=C(c1ccccc1)N1N=C(c2ccc([N+](=O)[O-])cc2)CC1c1cn(-c2ccccc2)nc1-c1ccc(F)cc1		EC90	BACTEC / radiometric	H37Rv		>187 µM
Cc1ccn2c(C(=O)NCc3ccnc(N4CCC(c5ccc(C(F)(F)F)cc5)CC4)c3)c(C)nc2c1		MIC90	resazurin	H37Rv		<2 µM
CC(C)c1ccc(NC(=S)c2cccc(Br)c2)cc1		MIC		My 331/88		32 µM
Cc1ccn2c(C(=O)NCc3ccc(N4CCC(c5ccc(OC(F)(F)F)cc5)CC4)cc3)c(C)nc2c1		MIC90	resazurin	H37Rv		<2 µM
NCCNc1ccnc2cc(Cl)ccc12		MIC	resazurin	H37Rv		125 µg/mL
CCN(CC)c1ccc2cc(C(=O)Nc3ccc4[nH]c(C(=O)N5CC(CCl)c6c5cc(OC(=O)Nc5ccccc5)c5[nH]cc(C)c65)cc4c3)oc2c1		MIC bound	BACTEC	H37Rv		≤6.25 µg/mL
O=C(CC(=O)c1ccccc1)Nc1ccc(O)cc1		MIC		H37Rv		50 µg/mL
Cc1ccc2nc(O)cc(=O)n2c1		MIC bound	BACTEC	H37Rv		>6.25 µg/mL
Cn1c(=O)cc(Oc2nc(Nc3ccc(C#N)cc3)nc(Sc3nc4ccccc4s3)n2)c2ccccc21		inhibition	agar		100 µg/mL	96%
CO[C@H]1/C=C/O[C@@]2(C)Oc3c(C)c(O)c4c(O)c(c(/C=N/N5CCN(C)CC5)c(O)c4c3C2=O)NC(=O)/C(C)=C\C=C\[C@H](C)[C@H](O)[C@@H](C)[C@@H](O)[C@@H](C)[C@H](OC(C)=O)[C@@H]1C		MIC90		6 strains (rifampicin-resistant)		100 µg/mL
CC1(C)C(=O)C=C(O)C=C1O		MIC		H37Rv		>100 µg/mL
O=C(Oc1ccc(Br)cc1C(=O)Nc1ccc(C(F)(F)F)cc1)c1cnccn1	14 d	MIC		multidrug resistant 234/2005		0.25 µM
Nc1cc2nc3ccccc3nc2cc1O		MIC		H37Rv		>100 µg/mL
O=C(Oc1cc(Cl)ccc1C(=O)Nc1cccc(Br)c1)c1cnccn1	14 d	MIC		H37Rv 331/88		2 µM
CCc1nc2sc(C)cn2c1C(=O)NCc1ccc2c(c1)CCO2		MIC90	resazurin	H37Rv		<2 µM
NC(=O)c1ncn([C@@H]2O[C@H](COP(=O)(O)O)[C@@H](O)[C@H]2O)c1N		inhibition	BACTEC		6.25 µg/mL	0%
Oc1ccc(-c2cc(-c3cn(-c4ccccc4)nc3-c3ccc(F)cc3)[nH]c(=S)n2)cc1		EC90	BACTEC / radiometric	H37Rv		>227 µM
O=C(O)COCc1ccccc1		MIC		H37Rv		>100 µg/mL
CN(C)CCCNc1cc(/C=C/c2cccc3ccccc23)nc2ccccc12		MIC bound		H37Rv		>6.25 µg/mL
C#CCN(CC#C)CCNc1ccnc2cc(Cl)ccc12.[Cl][Pt+2][Cl]		MIC	resazurin	H37Rv		>250 µg/mL
CC1=[N+](C)N(c2ccccc2)C(=O)C1Nc1nc(Nc2ccc(C#N)cc2)nc(Oc2cc(=O)n(C)c3ccccc23)n1		inhibition	agar		100 µg/mL	62.5%
O=C(Oc1cc(Cl)ccc1C(=O)Nc1ccc(Cl)cc1)c1cnccn1	14 d	MIC		H7Rv 331/88		2 µM
NNC(=O)c1ccncc1		MIC		H37Ra		0.03 µg/mL
NCCCCNc1ccnc2cc(Cl)ccc12		MIC	resazurin	H37Rv		250 µg/mL
COc1cc(-c2nnc(Sc3nc(Nc4ccc(C#N)cc4)nc(Oc4cc(=O)n(C)c5ccccc45)n3)o2)cc(OC)c1OC		MIC	agar			12.5 µg/mL
Cc1cc(=O)oc2c(O)c(O)ccc12		MIC		H37Rv		50 µg/mL
CO[C@H]1/C=C/O[C@@]2(C)Oc3c(C)c(O)c4c(O)c(c(/C=N/N5CCN(C)CC5)c(O)c4c3C2=O)NC(=O)/C(C)=C\C=C\[C@H](C)[C@H](O)[C@@H](C)[C@@H](O)[C@@H](C)[C@H](OC(C)=O)[C@@H]1C		MIC90	turbidity / fluorescence	H37Rv-LP		0.008 µM
O=C(Nc1cc(Cl)ccc1Cl)c1cc2ccccc2cc1O		MIC		H37Rv		>100 µg/mL
CCCCCCCCCCCCCCOc1ccc(S(=O)(=O)/N=C(\N)NC(N)=NCCCCCCCCCC)cc1		MIC bound	resazurin	H37Rv		>6.25 µg/mL
O=C(O)CONC(=O)c1ccccc1		MIC		H37Rv		100 µg/mL
CCCCc1ccc(NC(=S)c2cccc(Cl)c2)cc1		MIC		My 331/88		32 µM
CC1=C(Nc2ccccc2)C(=O)N(c2ccccc2)C1c1ccccc1		inhibition	BACTEC	H37Rv	12.5 µg/mL	-8%
Cc1cn2c(C(=O)NCc3ccc(N4CCS(=O)(=O)CC4)cc3)c(C)nc2s1		MIC90	resazurin	H37Rv		2–10 µM
C=CCN=C(N=Nc1c(O)[nH]c2ccc(Br)cc12)SCC(=O)c1ccc(Br)cc1		EC50		H37Rv		<12 µg/mL
COc1cc(C2SCCCCCCCCCCSC(c3ccc(O)c(OC)c3)SCCCCCCCCCCS2)ccc1O		MIC bound	resazurin	H37Rv		>6.25 µg/mL
CC(=O)C(C)(C)C		MIC		H37Rv		100 µg/mL
CCc1nc2ccc(C)cc2n1CCCCNc1ccccc1		MIC90	turbidity / fluorescence	H37Rv-MA		0.79 µM
CC(C)(CC(=O)O)C(=O)O		MIC		H37Rv		>100 µg/mL
NC1N=C(c2ccc(Cl)cc2)C2=C(N1)c1ccccc1CC2		MIC	resazurin	H37Rv		>12.5 µg/mL
Cc1ccn2c(C(=O)NCc3ccc(N4CCCN(c5ccc(S(F)(F)(F)(F)F)cc5)CC4)cc3)c(C)nc2c1		MIC90	resazurin	H37Rv		<2 µM
COC(=O)/C1=C/c2c([nH]c3ccc(F)cc23)/C(C(=O)OC)=C\c2c1[nH]c1ccc(F)cc21		EC50	resazurin / absorbance	H37Rv		1.68 µM
COc1cc2[nH]c(C)c(CCN3CCN(c4ccccc4)CC3)c2cc1OC		inhibition	resazurin	H37Rv	6.25 µg/mL	22%
O=C(O)c1cc(Br)c(O)c(Br)c1		MIC		H37Rv		100 µg/mL
O=C1C(=O)N(c2ccccc2Cl)C(=O)N1Cc1ccccc1		MIC bound	BACTEC	H37Rv		>12.5 µg/mL
O=C(CSc1nc2ccccc2[nH]1)N=Nc1c(O)[nH]c2ccccc12		inhibition		H37Rv	12 µg/mL	1%
CC1Cc2ccccc2/C1=N\NC(N)=O		MIC		H37Rv		>100 µg/mL
COC(=O)/C=C1\Sc2ccc(C(F)(F)F)cc2NC1=O		inhibition	BACTEC	H37Rv	12.5 µg/mL	-39%
CCc1nc2ccccc2n1CCCCOc1ccc2sc(C)nc2c1		MIC90	turbidity / fluorescence	H37Rv-MA cydC::aph		0.82 µM
Nc1nc(-c2ccc([N+](=O)[O-])cc2)cc(-c2cn(-c3ccccc3)nc2-c2ccc(F)cc2)n1		EC90	BACTEC / radiometric	H37Rv		>220 µM
S=C(Nc1ccccc1)Nc1ccc(-c2nnc(NC3CCCCC3)s2)cc1		EC50		H37Rv		<6.25 µg/mL
CC1S/C(=N/N=C2\C(=O)Nc3ccc(Br)cc32)N(c2ccc(Cl)cc2)C1=O		inhibition		H37Rv	12 µg/mL	82%
CC(=O)Nc1ccc(N)cc1		MIC		H37Rv		25 µg/mL
COC(=O)[C@H]1[C@H]2C[C@@H]3c4[nH]c5cc(OC)ccc5c4CCN3C[C@H]2C[C@@H](O)[C@@H]1OC		inhibition	BACTEC	H37Rv	12.5 µg/mL	3%
CCc1nc2ccccc2n1CCCCOc1ccc(C)c(Cl)c1		MIC90	turbidity / fluorescence	H37Rv-LP		0.44 µM
NCCNc1ccnc2cc(Cl)ccc12.[Cl][Pt][Cl]		MIC	resazurin	H37Rv		15.6 µg/mL
CC(=O)N1CCOCC1		MIC		H37Rv		>100 µg/mL
CC(C)N=c1cc2n(-c3ccc(Cl)cc3)c3ccccc3nc-2cc1Nc1ccc(Cl)cc1		MIC		H37Rv		1.3 µg/mL
O=C(CC(=O)c1ccccc1)Nc1ccc(S(=O)(=O)N(c2ccccc2)c2ccccc2)cc1		MIC		H37Rv		>100 µg/mL
C#CCN(CC#C)CCCNc1ccnc2cc(Cl)ccc12		MIC	resazurin	H37Rv		15.6 µg/mL
O=C(c1ccc(Cl)cc1)c1ccc(Cl)cc1		MIC		H37Rv		>100 µg/mL
NNC(=O)c1ccccc1		MIC		Mtb 56		1 µg/mL
Cn1c(=O)cc(Oc2nc(Nc3ccc(C#N)cc3)nc(Sc3nnc(-c4ccncc4)o3)n2)c2ccccc21		MIC	agar			62.5 µg/mL
Cc1oc(N)c(C(N)=O)c1C		MIC bound	BACTEC	H37Rv		>12.5 µg/mL
COC(=O)/C1=C/c2c([nH]c3ccc(Br)cc23)/C(C(=O)OC)=C\c2c1[nH]c1ccc(Br)cc21		EC50	resazurin / absorbance	H37Rv		1.98 µM
C/C=C(/C)NS(=O)(=O)c1ccc(Br)cc1		MIC		H37Rv		25 µg/mL
Fc1cccc(F)c1C1SCc2nc3ccccc3n21		MIC bound	BACTEC	H37Rv		>12.5 µg/mL
S=C(Nc1ccccc1)Nc1ccc(-c2nnc(Nc3ccc(Cl)cc3)s2)cc1		MIC		H37Rv		>6.25 µg/mL
O=C(Oc1ccc(Cl)cc1C(=O)Nc1ccc(C(F)(F)F)cc1)c1cnccn1	14 d	MIC		multidrug resistant 7357/1998		0.25 µM
S=C(Nc1ccc(C2CCCCC2)cc1)c1ccccc1		MIC		My 331/88		32 µM
Cc1cn2c(C(=O)NCc3ccc(N4CCCN(c5ccc(S(F)(F)(F)(F)F)cc5)CC4)cc3)c(C)nc2s1		MIC90	resazurin	H37Rv		<2 µM
CC(C)c1ccc(NC(=S)c2cccc([N+](=O)[O-])c2)cc1		MIC		My 331/88		16 µM
Cc1cc(NS(=O)(=O)c2ccc(NCc3c4ccccc4nc4cc(Cl)ccc34)cc2)no1		MIC bound	BACTEC	H37Rv		>12.5 µg/mL
NC(=S)N/N=C\c1ccccc1		MIC		H37Ra		0.1 µg/mL
Nc1c(C(=O)Nc2cccc3c2C(=O)c2ccccc2C3=O)ccc2c1C(=O)c1ccccc1C2=O		inhibition	BACTEC	H37Rv	12.5 µg/mL	17%
S=C(Nc1ccccc1)Nc1ccc(-c2nnc(NCc3ccccc3)s2)cc1		EC50		H37Rv		>6.25 µg/mL
CCN(CC)CCOC(=O)c1ccc(N)cc1		MIC		H37Rv		>100 µg/mL
Cn1c(=O)cc(Oc2nc(Nc3ccc(C#N)cc3)nc(Nc3nc4ccc(F)cc4s3)n2)c2ccccc21		MIC	agar			25 µg/mL
O=[N+]([O-])c1ccccc1N=Nc1c(O)[nH]c2c(Cl)cc(Cl)cc12		MIC bound	resazurin	H37Rv		>6.25 µg/mL
Cc1ccn2c(C(=O)NCc3ccc(N4CCC5(CC4)OCC(C)CO5)c(F)c3)c(C)nc2c1		MIC90	resazurin	H37Rv		<2 µM
Nc1ccc(S(=O)(=O)c2ccncc2)cc1		MIC		H37Rv		25 µg/mL
Cc1ccc(N=Nc2sc(N)nc2-c2ccccc2)c(C)c1		inhibition	BACTEC	H37Rv	6.25 µg/mL	93%
Cn1c(=O)cc(Oc2nc(Nc3ccc(C#N)cc3)nc(Oc3cc(=O)n(C)c4ccccc34)n2)c2ccccc21		inhibition	agar		50 µg/mL	96%

Repeating the first 7 entries:

compound,setting,read-out,read by,strain or isolate,tested at,result
NC(=O)CS,,MIC,,H37Rv,,>100 µg/mL
Cc1ccn2c(C(=O)NCc3ccc(N(C)C)cc3)c(C)nc2c1,,MIC90,resazurin,H37Rv,,<2 µM
Nc1nc(-c2ccc(Cl)cc2)cc(-c2cn(-c3ccccc3)nc2-c2ccc(F)cc2)n1,,EC90,BACTEC / radiometric,H37Rv,,>226.3 µM
C=CCNC(=S)N=Nc1c(O)[nH]c2ccccc12,,inhibition,,H37Rv,12 µg/mL,24%
CNS(=O)(=O)c1cc([N+](=O)[O-])c(N2CCCCC2)c([N+](=O)[O-])c1,,inhibition,BACTEC,H37Rv,12.5 µg/mL,9%
S=C(Nc1ccc(C2CCCCC2)cc1)c1cccc(Cl)c1,,MIC,,My 331/88,,32 µM
Cc1ccc2nc(C)c(C(=O)NCc3ccc(C(F)(F)F)cc3)n2c1,,MIC90,resazurin,H37Rv,,<2 µM